Experiment [1] has as its system acute HIV infection of T-lymphoid cells. Put plainly: Assay for inhibition of HIV replication (spread assay). The following applies: inhibition of HIV-1 replication, 10% FBS. Here is the method: • Assay for Inhibition of HIV Replication
Assays for the inhibition of acute HIV infection of T-lymphoid cells were conducted in accordance with Vacca, J. P. et al., Proc. Natl. Acad. Sci. USA 1994, 91: 4096.

Experiment [2] concerns the target wild-type HIV-1 protease (Human immunodeficiency virus type 1 group M subtype B, UniProt P04585). Put plainly: Assay for inhibition of microbial expressed HIV protease. Conditions: read-out: Enzyme Inhibition - IC50, wild-type HIV-1 protease expressed in E. coli, peptide substrate, pH 5.5.

Like-named read-outs stand apart in the source and are kept apart here.

A word on the IC50: it is the concentration that inhibits the measured activity by half. As to `CN[C@H](C(=O)N[C@@H](C)CCC[C@@H](CO)N(C(C)C)S(=O)(=O)c1ccc(N)cc1)C(c1ccccc1)c1ccccc1`, the “Spread - IC95” value in experiment [1] (tested form: HCl) was 31 nM. In experiment [2] (tested form: HCl), the half-maximal inhibitory concentration (IC50) turned out to be 0.131 nM.
For `CC[C@@H](CCC[C@@H](CO)N(C(C)C)S(=O)(=O)c1ccc([C@H](C)O)cc1)NC(=O)[C@@H](NC(=O)OC)C(c1ccccc1)c1ccccc1`, the “Spread - IC95” value in experiment [1] came out at 41 nM. Further, the IC50 in experiment [2] was found to be 0.133 nM.
